Measurements reported in PubChem BioAssay AID624099 (ICCB-Longwood, 2012)

Assay: 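Host factors E2 relies on to silence an HPV18 LCR reporter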 (primary screen)
Cells: human C33A cervical carcinoma cells (HPV-negative) stably expressing BPV1 E2 and an HPV18 LCR luciferase reporter
Reagent: siRNA pool against human genes, 40 nM
Time to read-out: 72 h
Detection: 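HPV18 LCR reporter light per well, converted to plate-wise z-scores that exclude control wells, and averaged over triplicate plates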
Scale: mean z-score and z-score: higher = stronger reporter signal, weaker E2 silencing
Active means: 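Mean z ≥ 2 together with z ≥ 2 in two or more of the three replicates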
The deposit covers about 21,000 reagents; this is a part drawn at random. Of all reagents, 497 (2.4%) got an active call. 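Higher z means weaker E2 silencing; only reporter increases were scored, and knock-downs that hurt cell survival may mask genuine repressor factors.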 The numbers tell different reagents against one gene apart.

| Gene | reagent | mean z-score | z-score, replicate A | z-score, replicate B | z-score, replicate C | call |
| --- | --- | --- | --- | --- | --- | --- |
| SELENOS (selenoprotein S) | 1 | -0.05 | -0.45 | 0.17 | 0.13 | inactive |
| TXNDC17 (thioredoxin domain containing 17) | 1 | 1.34 | 1.36 | 1.1 | 1.56 | inactive |
| PPP1R26 (protein phosphatase 1 regulatory subunit 26) | 1 | -0.08 | -0.36 | -0.15 | 0.27 | inactive |
| PGBD4 (piggyBac transposable element derived 4) | 1 | 1.3 | 1.15 | 0.93 | 1.83 | inactive |
| STRADB (STE20 related adaptor beta) | 1 | 1.73 | 1.79 | 1.52 | 1.88 | inactive |
| TP53TG5 (TP53 target 5) | 1 | 0.74 | 0.43 | 0.81 | 1 | inactive |
| NUDT2 (nudix hydrolase 2) | 1 | -0.35 | -0.53 | -0.34 | -0.19 | inactive |
| GJB4 (gap junction protein beta 4) | 1 | 0.3 | 0.16 | 0.4 | 0.33 | inactive |
| DENR (density regulated re-initiation and release factor) | 1 | 0.04 | 0.29 | 0.01 | -0.18 | inactive |
| FER1L6-AS2 (FER1L6 antisense RNA 2) | 1 | -0.04 | -0.5 | 0.3 | 0.06 | inactive |
| MYLIP (myosin regulatory light chain interacting protein) | 1 | 0.66 | 1.09 | 0.62 | 0.28 | inactive |
| ALDH1A1 (aldehyde dehydrogenase 1 family member A1) | 1 | 0.22 | -0.23 | 0.46 | 0.42 | inactive |
| ELL2 (elongation factor for RNA polymerase II 2) | 1 | 0.58 | 0.82 | 0.65 | 0.27 | inactive |
| NTRK1 (neurotrophic receptor tyrosine kinase 1) | 1 | -0.07 | -0.41 | 0.02 | 0.18 | inactive |
| LCP2 (lymphocyte cytosolic protein 2) | 1 | 0.37 | 0.28 | 0.28 | 0.56 | inactive |
| CYP4V2 (cytochrome P450 family 4 subfamily V member 2) | 1 | -0.72 | -0.88 | -0.72 | -0.57 | inactive |
| QSOX1 (quiescin sulfhydryl oxidase 1) | 1 | -0.52 | -0.65 | -0.49 | -0.43 | inactive |
| QSOX1 (quiescin sulfhydryl oxidase 1) | 2 | -0.01 | -0.56 | 0.34 | 0.2 | inactive |
| LOC387697 (retired record) | 1 | 0.1 | 0.06 | 0.02 | 0.22 | inactive |
| WNT1 (Wnt family member 1) | 1 | -1.34 | -1.37 | -1.24 | -1.42 | inactive |
| CNTNAP2 (contactin associated protein 2) | 1 | 0.57 | 0.55 | 0.6 | 0.55 | inactive |
| LRRC37A (leucine rich repeat containing 37A) | 1 | 0.32 | 0.07 | 0.33 | 0.58 | inactive |
| SKI (SKI proto-oncogene) | 1 | -0.1 | -0.17 | -0.04 | -0.08 | inactive |
| L3HYPDH (trans-L-3-hydroxyproline dehydratase) | 1 | -0.42 | -0.58 | -0.21 | -0.46 | inactive |
| ZNF205 (zinc finger protein 205) | 1 | 0.42 | 0.48 | 0.56 | 0.23 | inactive |
| TRIM64FP (tripartite motif containing 64F, pseudogene) | 1 | -0.15 | -0.41 | 0.1 | -0.13 | inactive |

Limited to “mean z-score” (8 entries from above):
QSOX1 (quiescin sulfhydryl oxidase 1) #1	-0.52
QSOX1 (quiescin sulfhydryl oxidase 1) #2	-0.01
LOC387697 (retired record)	0.1
WNT1 (Wnt family member 1)	-1.34
CNTNAP2 (contactin associated protein 2)	0.57
LRRC37A (leucine rich repeat containing 37A)	0.32
SKI (SKI proto-oncogene)	-0.1
L3HYPDH (trans-L-3-hydroxyproline dehydratase)	-0.42

Continued:
| Gene | reagent | mean z-score | z-score, replicate A | z-score, replicate B | z-score, replicate C | call |
| --- | --- | --- | --- | --- | --- | --- |
| NID2 (nidogen 2) | 1 | 0.33 | 0.44 | 0.65 | -0.11 | inactive |
| LHFPL1 (LHFPL tetraspan subfamily member 1) | 1 | -0.6 | -0.59 | -0.57 | -0.66 | inactive |
| PTGS2 (prostaglandin-endoperoxide synthase 2) | 1 | 0.01 | -0.11 | 0.16 | -0.01 | inactive |
| LIX1 (limb and CNS expressed 1) | 1 | -0.71 | -0.64 | -0.71 | -0.78 | inactive |
| MTMR7 (myotubularin related protein 7) | 1 | -0.61 | -0.33 | -0.77 | -0.73 | inactive |
| TSGA13 (testis specific 13) | 1 | 0.33 | 0.22 | 0.02 | 0.76 | inactive |
| METTL3 | 1 | -0.39 | -0.47 | -0.31 | -0.39 | inactive |
| ELSPBP1 (epididymal sperm binding protein 1) | 1 | -0.19 | -0.37 | -0.33 | 0.12 | inactive |
| PRF1 (perforin 1) | 1 | 1.61 | 1.38 | 1.4 | 2.05 | inactive |
| EIF3I (eukaryotic translation initiation factor 3 subunit I) | 1 | -2.3 | -1.65 | -2.39 | -2.88 | inactive |
| STRIP2 (striatin interacting protein 2) | 1 | -1.36 | -1.39 | -1.3 | -1.38 | inactive |
| CCL22 (C-C motif chemokine ligand 22) | 1 | -0.19 | -0.33 | -0.27 | 0.04 | inactive |
| OLFM3 (olfactomedin 3) | 1 | -1.08 | -1.18 | -0.99 | -1.07 | inactive |
| LOC159170 (retired record) | 1 | -0.04 | -0.33 | -0.13 | 0.33 | inactive |
| TTC36 (tetratricopeptide repeat domain 36) | 1 | -1.26 | -1.53 | -1.66 | -0.6 | inactive |
| PANX3 (pannexin 3) | 1 | -0.3 | -0.61 | -0.29 | 0 | inactive |
| DEAF1 (DEAF1 transcription factor) | 1 | -0.72 | -0.87 | -0.8 | -0.49 | inactive |
| ADAMTS17 (ADAM metallopeptidase with thrombospondin type 1 motif 17) | 1 | -1.09 | -0.65 | -1.15 | -1.46 | inactive |
| LINC02873 (long independently transcribed non-coding RNA 2873) | 1 | 0.01 | 0.17 | -0.56 | 0.41 | inactive |
| LOC441038 (retired record) | 1 | -0.8 | -1.01 | -0.8 | -0.6 | inactive |
| KRT222 (keratin 222) | 1 | 0.79 | 1.05 | 0.6 | 0.73 | inactive |
| GGT3P (gamma-glutamyltransferase 3 pseudogene) | 1 | -0.54 | -0.41 | -0.62 | -0.6 | inactive |
| GGT3P (gamma-glutamyltransferase 3 pseudogene) | 2 | -2.55 | -2.62 | -2.56 | -2.46 | inactive |
| SRPK1 (SRSF protein kinase 1) | 1 | -0.21 | -0.27 | -0.08 | -0.28 | inactive |
| AGER (advanced glycosylation end-product specific receptor) | 1 | -0.38 | -0.24 | -0.4 | -0.49 | inactive |
| MYO7B (myosin VIIB) | 1 | 1.6 | 1.33 | 1.42 | 2.04 | inactive |
| CD34 (CD34 molecule) | 1 | 1.65 | 1.69 | 1.51 | 1.74 | inactive |
| PEBP4 (phosphatidylethanolamine binding protein 4) | 1 | -0.07 | -0.21 | -0.31 | 0.3 | inactive |
| IL17F (interleukin 17F) | 1 | -0.13 | 0.18 | -0.41 | -0.16 | inactive |
| ABCD1 (ATP binding cassette subfamily D member 1) | 1 | 1.27 | 0.87 | 1.51 | 1.43 | inactive |
| HADHA | 1 | 0.7 | 0.66 | 0.97 | 0.47 | inactive |
